According to patent US20230296621A1:

How the values were obtained:
[1] = biological target: S sensors L15 + S25: S(aa 328-533)-15aa-LgBiT and S(aa 328-533)-25aa-SmBiT (SARS-CoV-2)
[2] = biological target: S sensors L15 + S25: S(aa 328-533)-15aa-LgBiT and S(aa 328-533)-25aa-SmBiT (SARS-CoV-2); experiment: spLUC, lyophilized S sensors

| Substance | percent of signal competed [1] [%] | percent signal strength of lyophilized compared to fresh sensors [2] [%] |
| --- | --- | --- |
| CR3022 Fab | 90 |  |
| CR3022 IgG (antibody) |  | 50 |
